From patent US20080292586A1 (priority 2005, published 2008) come the findings set out here.

The assay relates to H5N1 Avian influenza virus (A/VN/1203/04). The class given is cell-based. The arrangement: SI50: unit not given beside the values.

“And” between values parts separate entries of the source, which are not always exact repeats. Identical values can stand only once.

For the substance Interferon alpha 2a, the IC25 is reported as 12.08 IU, the IC50 came to 32.08 IU, the “IC50 (IU/ml)” value was 32.08 IU/ml and the “IC50 (pg/ml)” value is 114.64 pg/mL. Also, the IC90 was 86.06 IU and the SI50 worked out at 31.2.
For Interferon beta 1a, the “Fold-difference compared to IC50 (Multiferon)” value is 17.24 and 23.05; the “IC50 (IU/ml)” value turned out to be 10.69 IU/ml; the “IC50 (pg/ml)” value came out at 130.01 pg/mL.
